Measurements from “University of Dundee, Small-Polar-MMV Screening Library” (2021), ChEMBL document CHEMBL3988442.

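Growth of Mycobacterium tuberculosis over 3 days (7H9 medium with glucose and tyloxapol); the read-out is not stated. Concentration: 50 µM. Higher reads as more growth inhibition (inferred: compounds with an IC50 in retests scored well above the rest). Size under these conditions: about 69,000 compounds, about 760 of them at 50% or above in at least one test.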

The filed quantity is “Percent Effect” (%).
The controls that fix the scale are not given in the record; negative values are as filed.
Many other results are left out here, so strong results are more common than in the screen.
Two or more numbers in one place are separate tests of the same structure; such repeats can differ widely.

Compound	percent effect
Cc1cc2nc(C(C)C)cc(NCCc3cccn3C)n2n1	53.2
CCOc1ccc2nc(CN3CCC(CN)C3)ccc2c1 (stereo not shown)	54.76
COc1ccc(C[C@H]2CN(C(=O)c3ncccn3)CC[C@@H]2OC)cc1	-4.602
COc1ccc(C(=O)O)cc1-c1cccc2c1CCNC2	-3.504 & -2.881
CC/C=C(/C)C(=O)NS(=O)(=O)c1ccc(C#N)c(C(F)(F)F)c1	-15.64
Clc1ccc(CNc2ccc(Cl)cn2)cc1	19.32
Cc1ccc(S(=O)(=O)CCC(=O)NCc2nnc3n2CCC3)cc1	-21.98
NC(=O)C1CCN(C(=O)NCc2ccc3c(c2)OCCO3)CC1	-0.6 & -2.252
CCc1noc(CNc2nc(-c3cccnc3)nc3c2CCNCC3)n1	39.55
Clc1ccc(N2CCN(CCCN3CCCCC3)CC2)nc1	12.03 & 11.01
Cl.Fc1cccc(CN2CCC(c3cc4ncccc4cn3)CC2)c1F	56.76
CC(C)c1nnc(CN(C)C(c2ccccc2)c2ccc(F)cc2)o1 (stereo not shown)	32.54 & 23.07
O=C(Cc1cccc(Cl)c1)N[C@@H]1CCNC[C@H]1O	7.96
CCOC(=O)N1CCN(C(=O)c2cc(-c3ccc(C)cc3)on2)CC1	39.05
NC(=O)c1cc(C2CCCN(C(=O)CCc3ccsc3)C2)n[nH]1 (stereo not shown)	-13.93
O=C(Nc1ccc(F)c(-n2cccc2)c1)NC1(CCO)CCOCC1	56.41
Cc1ccc(C(=O)O)c(N2Cc3cnc(C(C)(C)C)nc3C2)n1	-5.123 & -2.854
CC(C)n1nccc1NC(=O)NCCc1nc2ccc(F)cc2n1C	111.8 & -7.874
Cn1ccnc1CN(Cc1ccccn1)Cc1ccccc1Cl.O=C(O)CC(O)(CC(=O)O)C(=O)O	74.57
O=C1CCC2(CCN(Cc3ncccn3)CC2)CN1CCCO	9.659
COC(C)(C)CC(C)NC(=O)Nc1ccccn1 (stereo not shown)	-12.63
CC(CCc1ccco1)NC(=O)Nc1cc(C(F)(F)F)c[nH]c1=O (stereo not shown)	78.27
O=C(O)C(F)(F)F.O=C(c1c[nH]cn1)N1CCC(F)(F)C2(CCN(c3ncccn3)C2)C1 (stereo not shown)	-4.421 & -4.399
NC(=O)C1(CNC(=O)CCc2ccc(Cl)s2)CCOCC1	9.535
Cc1nc(CCNC(C)c2ccc3c(c2)OCCCO3)cs1 (stereo not shown)	10.86
COc1cc(C)sc1C(=O)NCCNc1ccccc1	65.31 & 74.25
CC(C)OCCN1CCN(C(=O)c2cccc(-n3cccn3)n2)CC1	1.47
CCNC(=O)N1CC(c2nc(Cc3ccccc3)no2)C1	6.984
Cc1cccc(CC(=O)Nc2cccnc2N2CCC(CO)CC2)c1	-10.33 & -0.3987
Cl.FC(F)(F)c1ccc(-c2cnc(C3CCCN3)cn2)cc1 (stereo not shown)	56.38
CCn1nc(C)c2nc(C)nc(N(C)Cc3ccco3)c21	13.29
c1ccc(OCCSC2=NCCN2)cc1	32.06
CNCc1cc(F)ccc1Oc1ccc(Cl)cc1	1.521
CC(C1CC1)N(C)Cc1nnc(-c2ccco2)o1 (stereo not shown)	23.71 & 40.96
CCCOc1cc(CNC(=O)Nc2ccc(C)cc2)ccn1	-23.21
CCC1CN(C(=O)c2csc3nc(-c4ccc(Cl)cc4)cn23)CCN1 (stereo not shown)	73
CC(C)Oc1cccc(CNC(Cc2ccsc2)c2nccs2)c1.Cl (stereo not shown)	22.47
Cc1ccc(CN[C@@H]2COC[C@H]2Cc2cc(C)no2)cc1.O=C(O)CC(O)(CC(=O)O)C(=O)O	-6.832
CCN1CCN(S(=O)(=O)c2c[nH]c(C(C)C)n2)c2ccccc21	32.42 & 65.91
COCc1noc(C2(c3ccc(F)cc3)CCC2)n1	-5.787 & 7.403
CC1CCCCN1C(=O)Cn1cnc(C#N)n1 (stereo not shown)	-31.9 & 8.05
O=C(Cn1cc(I)cn1)N1CCCC1	20.05
Cl.O=c1c2sccc2nc2n1CCN(Cc1cc(F)ccc1F)CC2	60.16
COc1ccccc1OC1CN(C(=O)Cc2c(C)nc(N)nc2C)C1	-0.9546
Cc1ccc(CN2CCC3(CC(=O)N(c4cccc(F)c4)C3)C2)o1.O=C(O)C(F)(F)F (stereo not shown)	33.52 & 29.59
c1cc(CCN2CCN(c3ccc4nncn4n3)CC2)ccn1	18.57
CS(=O)(=O)C1CCN(S(=O)(=O)c2ccc(F)c(F)c2)C1 (stereo not shown)	33.79
COc1ccc(C(=O)N2CCN(c3cc(CCN)nc(C)n3)CC2)cc1	4.797
CC(SCCS(C)(=O)=O)c1nc(Cc2ccc(F)cc2)no1 (stereo not shown)	12.53
O=S(=O)(NCCN1CC=CC1)c1cncc(Cl)c1	12.81
CC(=O)N1CCC(c2cnc(-c3c(C)nn(C)c3C)cn2)CC1	1.747
CC(C)c1ccc(CN2C(=O)C3(CCNCC3)Nc3ccccc32)cc1	75.85
CC(O)CNc1c(NCc2ccco2)c(=O)c1=O (stereo not shown)	3.709
Cc1ccc2c(c1)OC(C)CN2C(=O)c1c[nH]c(C)cc1=O (stereo not shown)	17.83
NC(=O)C(NC(=O)c1cc(Br)c[nH]1)c1ccccc1 (stereo not shown)	2.334
Cc1cccc(NC(=O)C2(n3cnnn3)CCCCC2)n1	26.41
COc1cccc(-c2noc(-c3ccc(NCCCO)nc3)n2)c1OC	45.46
O=C(Cn1cc(I)cn1)N1CCCCCC1	-0.6731
CN1CCCCC1c1ncc2c(n1)CCN(Cc1ccc(F)cc1)C2 (stereo not shown)	41.44
CC(Nc1ccc(Br)cc1)c1nc(C2CC2)no1 (stereo not shown)	52.28
COc1cccc(OC)c1CNC(Cc1ccsc1)c1ccc(C)cn1 (stereo not shown)	71.05
NC(=O)NC1CCN(Cc2ccc3c(c2)CCC3)CC1	-23.61 & 3.196
COc1cc(NC(=O)NC(C2CC2)C2CC2)ccc1N1CCOC1=O	31.82
CC(C)Cc1nc(CN(C)CCOc2ccc(F)cc2)no1	35.42
CSc1nccc(N2CCC3(CCCN(Cc4cccc(C)c4)C3)C2)n1 (stereo not shown)	8.122
c1cncc(O[C@H]2COCCN(Cc3c[nH]c4ccccc34)C2)c1	1.197 & -11.46
COC(=O)COc1cc(NCc2c(C)noc2C)c(Cl)cc1C	106.6
Cc1cc(C)cc(OCC(=O)N2CCC2)c1	4.947
COCCN1CCC(c2nc3ccccc3[nH]2)CC1	-1.144
O=S(=O)(CCc1ccccc1)Cc1nc(C2CC2)no1	51.75 & 54.9
Cc1ccccc1CSc1nc(N)cc(N2CCOCC(CO)C2)n1 (stereo not shown)	-37.5
CCn1c(C2CCN(C(=O)c3cc(C4CC4)on3)CC2)nn(C)c1=O	13.85
COCCCNC(=O)c1cc(C(C)C)nc(N2CCCCCC2)n1	-16.81
COc1ccsc1C(=O)NCCNc1ccccc1	4.748 & 29.02
Cc1nn(C)c(C)c1C1CCCN1Cc1cccc(OCC(N)=O)c1 (stereo not shown)	-16.6
CC(C)OCCn1nnnc1Cc1ccc(Br)cc1	55.01
Cc1nc(CN(C)Cc2csc(-c3cccs3)n2)co1	-1.894 & -18.67
O=C(NCCNc1ncccn1)c1ccc(Cl)s1	21.37
Cc1ccc(CN2CCN(C(=O)c3ccc(Br)o3)CC2)cc1	68.82
Cc1nc(CN2C(=O)CCC23CCN(c2ncccn2)CC3)cs1.O=C(O)C(F)(F)F	14.93
Cc1cnn(CCNCc2nccn2Cc2ccccc2)c1	41.29
O=C(CCc1ccc(Br)cc1)NCCc1nnc[nH]1	3.313 & 123
Cc1ccc(N2CCCC3(COCCN(c4cnccn4)C3)C2)nn1 (stereo not shown)	53.26
c1ccc(COc2ccccc2CNC2CCc3ncnn3C2)cc1 (stereo not shown)	8.232
[H][C@]12CCN(C(=O)c3cc(C)on3)C[C@@]1([H])[C@H](CN1CCCC1)OC2	19.08
Cc1nn(C)c(C)c1CCC(=O)N1CC(c2cccnc2)C1	-22.37
CC(C)C(C(=O)N1CCC(Nc2cccnn2)CC1)n1cncn1 (stereo not shown)	15.72
O=C(NCc1ccco1)N1CCC(n2ccc(C(F)(F)F)n2)CC1	47.15
Cc1cccc(NC2CCN(C(=O)Nc3ccncc3)CC2)n1	-3.858 & -2.954
Cc1nnnn1-c1cc(NCc2cc(C#N)ccc2F)ccc1F	32.63
CC[C@H](C)Nc1ncc(-c2ccn(C3CCN(C(C)=O)CC3)n2)cn1	22.39
COc1ccc(CN2CCn3cccc3C2C)cc1F (stereo not shown)	16.06
COC(CNC(=O)c1cc(C)on1)c1ccccc1C (stereo not shown)	17.14
Cc1ccsc1CN(c1nc(CCN)nc2ccccc12)C1CC1	52.79
Cn1nnc(NCc2ccc(-c3ccc(Cl)cc3)o2)n1	53.11 & 35.24

The last 5 entries again:

For CC[C@H](C)Nc1ncc(-c2ccn(C3CCN(C(C)=O)CC3)n2)cn1 the result was 22.39%.
For COc1ccc(CN2CCn3cccc3C2C)cc1F (stereo not shown) the result was 16.06%.
For COC(CNC(=O)c1cc(C)on1)c1ccccc1C (stereo not shown) the result was 17.14%.
For Cc1ccsc1CN(c1nc(CCN)nc2ccccc12)C1CC1 the result was 52.79%.
For Cn1nnc(NCc2ccc(-c3ccc(Cl)cc3)o2)n1 the result was 53.11% & 35.24%.